Results deposited as PubChem BioAssay AID624099 (ICCB-Longwood, 2012).

Test: 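Knock-downs relieving repression by E2 of an HPV18 LCR luciferase reporter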 (primary screen)
Cell system: human C33A cervical carcinoma cells (HPV-negative) stably expressing BPV1 E2 and an HPV18 LCR luciferase reporter
Reagents: siRNA pool against human genes, 40 nM
Duration: 72 h
Measurement: 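HPV18 LCR reporter light per well, converted to plate-wise z-scores that exclude control wells, and averaged over triplicate plates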
Scale: mean z-score and z-score: higher = stronger reporter signal, weaker E2 silencing
Hit rule: 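Hit if mean z-score reaches 2 and two or more of three replicate z-scores also reach 2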
The deposit covers about 21,000 reagents; shown is a random part of them. 497 of them (2.4%) count as active. 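Higher z means weaker E2 silencing; only reporter increases were scored, and knock-downs that hurt cell survival may mask genuine repressor factors.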 Entries without a mark were called inactive.

{"target gene":"NDUFA13 (NADH:ubiquinone oxidoreductase subunit A13)","PubChem SID":"SID134320893","mean z-score":1.16,"z-score, replicate A":0.63,"z-score, replicate B":1.7,"z-score, replicate C":1.15}
{"target gene":"E2F3 (E2F transcription factor 3)","PubChem SID":"SID56478618","mean z-score":0.72,"z-score, replicate A":0.59,"z-score, replicate B":0.58,"z-score, replicate C":0.99}
{"target gene":"CELF5 (CUGBP Elav-like family member 5)","PubChem SID":"SID134320630","mean z-score":-0.72,"z-score, replicate A":-0.44,"z-score, replicate B":-1.1,"z-score, replicate C":-0.62}
{"target gene":"S100A16 (S100 calcium binding protein A16)","PubChem SID":"SID134319276","mean z-score":0.08,"z-score, replicate A":-0.25,"z-score, replicate B":0.18,"z-score, replicate C":0.31}
{"target gene":"MEF2A (myocyte enhancer factor 2A)","PubChem SID":"SID134314117","mean z-score":-0.52,"z-score, replicate A":-0.53,"z-score, replicate B":-0.67,"z-score, replicate C":-0.37}
{"target gene":"PPIAP80 (peptidylprolyl isomerase A pseudogene 80)","PubChem SID":"SID134327865","mean z-score":-0.21,"z-score, replicate A":-0.32,"z-score, replicate B":-0.06,"z-score, replicate C":-0.26}
{"target gene":"OFD1 (OFD1 centriole and centriolar satellite protein)","PubChem SID":"SID134314061","mean z-score":-0.46,"z-score, replicate A":-0.7,"z-score, replicate B":-0.33,"z-score, replicate C":-0.35}
{"target gene":"FAM220A (family with sequence similarity 220 member A)","PubChem SID":"SID134319041","mean z-score":-1.34,"z-score, replicate A":-1.68,"z-score, replicate B":-1,"z-score, replicate C":-1.34}
{"target gene":"LRIT1 (leucine rich repeat, Ig-like and transmembrane domains 1)","PubChem SID":"SID134318103","mean z-score":0.67,"z-score, replicate A":0.85,"z-score, replicate B":0.69,"z-score, replicate C":0.48}
{"target gene":"ZFAND1 (zinc finger AN1-type containing 1)","PubChem SID":"SID134314367","mean z-score":1.68,"z-score, replicate A":1.87,"z-score, replicate B":1.42,"z-score, replicate C":1.76}
{"target gene":"REX1BD (required for excision 1-B domain containing)","PubChem SID":"SID134324649","mean z-score":1.21,"z-score, replicate A":1.67,"z-score, replicate B":1.27,"z-score, replicate C":0.7}
{"target gene":"SERPINA2 (serpin family A member 2 (gene/pseudogene))","PubChem SID":"SID134328523","mean z-score":0.19,"z-score, replicate A":0.09,"z-score, replicate B":0.01,"z-score, replicate C":0.47}
{"target gene":"GPS2 (G protein pathway suppressor 2)","PubChem SID":"SID134310396","mean z-score":0.46,"z-score, replicate A":0.58,"z-score, replicate B":0.19,"z-score, replicate C":0.63}
{"target gene":"FUT6 (fucosyltransferase 6)","PubChem SID":"SID134313072","mean z-score":-0.05,"z-score, replicate A":-0.04,"z-score, replicate B":-0.5,"z-score, replicate C":0.4}
{"target gene":"TRAF3 (TNF receptor associated factor 3)","PubChem SID":"SID134310832","mean z-score":-0.9,"z-score, replicate A":-0.6,"z-score, replicate B":-1.12,"z-score, replicate C":-0.96}
{"target gene":"EXOSC9 (exosome component 9)","PubChem SID":"SID134323682","mean z-score":-0.15,"z-score, replicate A":-0.16,"z-score, replicate B":0.06,"z-score, replicate C":-0.34}
{"target gene":"ELMO3 (engulfment and cell motility 3)","PubChem SID":"SID134317185","mean z-score":-0.21,"z-score, replicate A":-0.05,"z-score, replicate B":0.08,"z-score, replicate C":-0.67}
{"target gene":"LINC01558 (long intergenic non-protein coding RNA 1558)","PubChem SID":"SID134324261","mean z-score":-1.06,"z-score, replicate A":-0.97,"z-score, replicate B":-1.27,"z-score, replicate C":-0.95}
{"target gene":"HINT3 (histidine triad nucleotide binding protein 3)","PubChem SID":"SID134319821","mean z-score":0.04,"z-score, replicate A":-0.59,"z-score, replicate B":0.27,"z-score, replicate C":0.44}
{"target gene":"ATP4A (ATPase H+/K+ transporting subunit alpha)","PubChem SID":"SID134311539","mean z-score":0.16,"z-score, replicate A":0.07,"z-score, replicate B":0.17,"z-score, replicate C":0.23}
{"target gene":"GAGE2E (G antigen 2E)","PubChem SID":"SID134316709","mean z-score":-0.65,"z-score, replicate A":-1.02,"z-score, replicate B":-0.53,"z-score, replicate C":-0.4}

A stretch from the list above:
{"target gene":"OFD1 (OFD1 centriole and centriolar satellite protein)","PubChem SID":"SID134314061","mean z-score":-0.46,"z-score, replicate A":-0.7,"z-score, replicate B":-0.33,"z-score, replicate C":-0.35}
{"target gene":"FAM220A (family with sequence similarity 220 member A)","PubChem SID":"SID134319041","mean z-score":-1.34,"z-score, replicate A":-1.68,"z-score, replicate B":-1,"z-score, replicate C":-1.34}
